Where two headings read alike, the source gives them in different places.
Experiments:
[1] = biological target: Rc-o319 RBD-Fc, wild type (AA 293-506) (sarbecovirus Rc-o319)
[2] = biological target: Rc-o319 RBD-Fc, wild type (AA 293-506) (sarbecovirus Rc-o319); remark: listed apart in the source
[3] = biological target: Rc-o319 RBD-Fc, wild type (AA 293-506) (sarbecovirus Rc-o319); remark: listed apart in the source
[4] = biological target: Rc-o319-RBD-Fc (wild type) (bat sarbecovirus Rc-o319 (from Rhinolophus cornutus))

“dimeric His-tagged Rhinolophus cornutus ACE2 (bACE2R.cor), AA 1-731” was tested, and the Kd [1] was 241 nM, the koff [1] was 0.0165 s⁻¹ and the kon [1] was 68600 M⁻¹ s⁻¹. For the same substance, the Kd [2] was 75.9 nM, the koff [2] was 0.00647 s⁻¹ and the kon [2] was 85200 M⁻¹ s⁻¹. It also gave a Kd [3] of 122 nM, a koff [3] of 0.00292 s⁻¹ and a kon [3] of 23800 M⁻¹ s⁻¹.
With “dimeric His-tagged Rhinolophus cornutus bat ACE2 (bACE2_(R.cor))” the Kd [4] was 76 nM.
